## PSTVd loop 15 mutant pool in Nicotiana benthamiana

PSTVd intermediate strain, loop 15: wild type GGAAACCGCUACUAC, pool pattern GGAAACCGNNNNNNC; upper and lower strand joined, each 5' to 3', the first 7 letters being the upper strand, closing pairs included.

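A pool of all variants was put on leaves of three Nicotiana benthamiana plants. Progeny were sequenced from the inoculated region (day 5), the margin of the inoculated leaf (day 10) and systemic leaves (day 12).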

Numbers give reads per thousand; 0 = not seen among the reads, higher = more abundant.
Each value is the mean of three plants.
"Pool" is the share in the plasmid pool used as inoculum, on the same scale.
The inoculated region was read from the minus strand, the other sites from the plus strand.
IR is the inoculated region, LM the leaf margin, Sys the systemic leaves.
Samples held 43,870 to 66,106 reads, so the smallest values rest on one or two reads.
Sequences that differ at fixed positions probably stem from PCR or sequencing errors, and defective variants can be carried along by functional ones.
For reference, wild type rose from 33.9 per thousand in the pool to 202, 200, 159 (inoculated region), 724, 746, 710 (leaf margin) and 856, 883, 880 (systemic leaves).

sequence	pool	IR	LM	Sys
GGAAACCGAAACACC	0.224	0.117	0.0121	0
GGAAACCGAAAGUCC	0.224	0.271	0.130	0.0537
GGAAACCGAACAGCC	0.224	0.0896	0.0328	0
GGAAACCGAACAGGC	0.192	0.243	0	0.0215
GGAAACCGAAUGAUC	0.256	0.212	0.00668	0
GGAAACCGAAUUAAC	0.112	0.130	0.0128	0
GGAAACCGACCCCCC	0.112	0.0970	0.00668	0.00537
GGAAACCGACUGUCC	0.480	0.117	0	0
GGAAACCGAGAGACC	0.256	0.124	0.0308	0.00537
GGAAACCGAGCGCAC	0.208	0.112	0.00668	0.00760
GGAAACCGAGUAAAC	0.240	0.0851	0.0121	0
GGAAACCGAUAGCCC	0.256	0.112	0.0128	0
GGAAACCGAUUAGGC	0.320	0.168	0.00668	0
GGAAACCGCACCGAC	0.192	0.136	0	0.00537
GGAAACCGCAGUGGC	0.352	0.107	0.0208	0
GGAAACCGCCCGCUC	0.224	0.0803	0.0141	0.0183
GGAAACCGCGCCGCC	0.336	0.0550	0	0.00504
GGAAACCGCGGGCAC	0.208	0.119	0	0.0107
GGAAACCGCGUCGGC	0.192	0.169	0	0.0107
GGAAACCGCGUGACC	0.288	0.0993	0.152	0.00537
GGAAACCGCGUGGGC	0.208	0.0495	0.0134	0
GGAAACCGCUCACGC	0.368	0.162	0.0410	0.00537
GGAAACCGCUCGGUC	0.288	0.299	0.125	0.00537
GGAAACCGGAAGUGC	0.192	0.334	0.0611	0.0635
GGAAACCGGACCAAC	0.240	0.100	0	0.00537
GGAAACCGGCACCAC	0.352	0.0941	0.00668	0
GGAAACCGGCACGAC	0.240	0.0558	0.00539	0
GGAAACCGGCACGUC	0.272	0.109	0.0289	0
GGAAACCGGGAUAAC	0.192	0.0792	0.0262	0
GGAAACCGGGGGUCC	0.320	0.0785	0.0134	0.0130
GGAAACCGGUACCUC	0.336	0.115	0.0254	0
GGAAACCGUAAGGGC	0.176	0.113	0.00742	0
GGAAACCGUAAGUUC	0.256	0.287	0.138	0.0591
GGAAACCGUAGUGCC	0.256	0.120	0.00668	0
GGAAACCGUCAACGC	0.208	0.179	0.0175	0.00537
GGAAACCGUCCAGAC	0.208	0.104	0.0128	0
GGAAACCGUCCUCGC	0.256	0.104	0	0.0107
GGAAACCGUCUAUCC	0.256	0.0941	0.00668	0
GGAAACCGUCUGUCC	0.400	0.121	0.0195	0
GGAAACCGUCUUAUC	0.192	0.412	0.0128	0.443
GGAAACCGUGACAAC	0.208	0.313	0.0665	0.0670
GGAAACCGUGCAUCC	0.224	0.102	0	0.00537
GGAAACCGUGGUGUC	0.208	0.101	0.0249	0
GGAAACCGUUCAUAC	0.176	0.511	0.0993	0.0515

A selection of 2 entries from above:

| sequence | pool | IR | LM | Sys |
|---|---|---|---|---|
| GGAAACCGAACAGCC | 0.224 | 0.0896 | 0.0328 | 0 |
| GGAAACCGAAACACC | 0.224 | 0.117 | 0.0121 | 0 |

Values reported by Wu et al. 2024 (doi:10.1371/journal.ppat.1012142).